Target: T1, Dimer of Gag-Pol polyprotein [489-587] (Human immunodeficiency virus 1, UniProt P12497)
T1 construct: 489-587
Experiment: Enzyme Inhibition Assay
Conditions: pH 5; 30 °C

`O=C(N[C@H]1c2ccccc2C[C@H]1O)[C@H](OCc1ccccc1)[C@H](O)[C@@H](O)[C@@H](OCc1ccccc1)C(=O)N[C@H]1c2ccccc2C[C@H]1O` [symmetric/asymmetric inhibitor 2] gave a Ki of 0.2 nM.
`O=C(NCc1ccccc1)[C@H](OCc1ccccc1)[C@H](O)[C@@H](O)[C@@H](OCc1ccccc1)C(=O)N[C@H]1c2ccccc2C[C@H]1O` [(2R,3R,4R,5R)-N-benzyl-2,5-bis(benzyloxy)-3,4-dihydroxy-N'-[(1S,2R)-2-hydroxy-2,3-dihydro-1H-inden-1-yl]hexanediamide] gave a Ki of 0.1 nM.
`CNC(=O)[C@@H](NC(=O)[C@H](OCc1ccc(-c2ccsc2)cc1)[C@H](O)[C@@H](O)[C@@H](OCc1ccc(-c2ccsc2)cc1)C(=O)N[C@H](C(=O)NC)C(C)C)C(C)C` [N1,N6-Bis[(1S)-2-methyl-1-(methylcarbamoyl)propyl]-(2R,3R,4R,5R)-2,5-bis[4-(3-thienyl)benzyloxy]-3,4-dihydroxyhexanediamide] was tested, and the Ki was 1.2 nM.
With `CNC(=O)[C@@H](NC(=O)[C@H](OCc1ccc(-c2cccnc2)cc1)[C@H](O)[C@@H](O)[C@@H](OCc1ccc(-c2cccnc2)cc1)C(=O)N[C@H](C(=O)NC)C(C)C)C(C)C` [N1,N6-Bis[(1S)-2-methyl-1-(methylcarbamoyl)propyl]-(2R,3R,4R,5R)-2,5-bis[4-(3-pyridyl)benzyloxy]-3,4-dihydroxyhexanediamide] the Ki was 0.1 nM.
